## Single amino acid changes in Zika NS2B-NS3 and viral growth

Protein: NS2B and the protease part of NS3 of Zika virus strain MR766. Positions count along the chain below; NS2B spans 2-131 and NS3 starts at 132.
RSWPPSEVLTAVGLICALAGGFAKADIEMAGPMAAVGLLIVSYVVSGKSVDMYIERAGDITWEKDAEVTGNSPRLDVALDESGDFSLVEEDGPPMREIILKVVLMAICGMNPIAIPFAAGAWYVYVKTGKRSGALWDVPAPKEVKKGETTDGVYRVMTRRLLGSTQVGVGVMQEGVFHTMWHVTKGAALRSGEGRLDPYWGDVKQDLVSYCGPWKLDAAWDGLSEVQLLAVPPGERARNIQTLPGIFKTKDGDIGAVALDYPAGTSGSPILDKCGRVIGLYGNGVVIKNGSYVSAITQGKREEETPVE

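Mutant virus pools were grown in human Huh-7.5 cells. Sequencing of three replicate libraries (two for positions 207-308) was averaged into one effect per change. The aim was to find sites where inhibitor-binding pockets cannot change.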

Scale: log2 effect, wild type = 0; the lower, the more harmful to the virus.
Substitutions are written as wild-type residue, site number, new residue.
An asterisk is a stop codon; stop codons read about -7, near the floor of the assay.
Values above 0 are not proof of better growth: six high scorers were tested one by one, five grew less well than wild type and one about as well.
The authors count -1 or higher as tolerated. Position 1 is the last residue of NS2A.
Positions 1-103, 104-206 and 207-308 were made and measured as separate libraries.

| # | mutation | log2 effect |
|---|---|---|
| 1 | I15C | -0.54 |
| 2 | I15S | -6.63 |
| 3 | M33L | -0.98 |
| 4 | A35N | -5.60 |
| 5 | V44C | -3.64 |
| 6 | I54M | -5.06 |
| 7 | E55G | -7.09 |
| 8 | R74K | -0.72 |
| 9 | L75F | -4.67 |
| 10 | V77L | -5.74 |
| 11 | V77N | -6.20 |
| 12 | M95C | -1.66 |
| 13 | E97D | -2.76 |
| 14 | I98C | -3.18 |
| 15 | K101V | -7.27 |
| 16 | C108L | -7.62 |
| 17 | M110L | 0.30 |
| 18 | N111T | 0.19 |
| 19 | A121E | -5.70 |
| 20 | A134G | -6.74 |
| 21 | L135R | -8.21 |
| 22 | W136K | -6.52 |
| 23 | V138* | -6.75 |
| 24 | P141G | -5.45 |
| 25 | K145H | -1.02 |
| 26 | D151A | -2.11 |
| 27 | V156F | -5.63 |
| 28 | R159N | -4.51 |
| 29 | R159V | -6.22 |
| 30 | G163S | -4.69 |
| 31 | T165A | -1.56 |
| 32 | E174R | -5.13 |
| 33 | F177T | -5.78 |
| 34 | H182N | -3.14 |
| 35 | T184V | -6.72 |
| 36 | G192R | -4.66 |
| 37 | E193G | -0.80 |
| 38 | W200* | -8.42 |
| 39 | K204L | -8.36 |
| 40 | K204R | -0.18 |
| 41 | K215L | -6.58 |
| 42 | L216A | -6.67 |
| 43 | Q227F | -5.06 |
| 44 | Q227P | -7.74 |
| 45 | L228H | -4.70 |
| 46 | R236N | 1.95 |
| 47 | R236Q | 1.12 |
| 48 | R238T | 1.95 |
| 49 | N239F | -5.79 |
| 50 | Q241N | -6.17 |
| 51 | P244F | -4.41 |
| 52 | F247T | -6.65 |
| 53 | D253G | -6.85 |
| 54 | A263* | -7.33 |
| 55 | T265L | -5.43 |
| 56 | S268W | -4.87 |
| 57 | I270C | -4.07 |
| 58 | L271* | -6.00 |
| 59 | C274Y | -2.08 |
| 60 | I278M | -5.19 |
| 61 | V286A | -4.27 |
| 62 | S291A | -0.48 |
| 63 | S294T | -6.24 |
| 64 | G299F | -4.95 |
| 65 | E303C | -0.94 |
| 66 | P306K | -2.08 |

The last 8 entries again:

mutation,log2 effect
C274Y,-2.08
I278M,-5.19
V286A,-4.27
S291A,-0.48
S294T,-6.24
G299F,-4.95
E303C,-0.94
P306K,-2.08

The measurements come from Ni et al. 2025 (doi:10.1038/s41467-025-63602-z).